The data set concerns the target T1, SsrBc (C-terminal domain of SsrB) (UniProt Q7CQM5).
T1 sequence (looked up, limits assumed): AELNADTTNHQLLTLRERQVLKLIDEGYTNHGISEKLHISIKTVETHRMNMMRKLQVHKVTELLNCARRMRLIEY
The data set can be described thus: EMSA. The following applies: recombinant protein, protein details: N-terminal His6, label: none (ethidium bromide stain), probe letters rebuilt from the primers and the genome.

Protein sequences can lack the tags named with them.

With “CGATGAGCTCACGGCAAGTTACAGGATCCGCAGCAATATCAGCAAAACACCTTATTGCTTGAAGCGATCGAGCAGGCCGAAAATATCATCAACATTATTTATTATCGTTACCATAACAGCGCACTTGTAGTGAGTGAGCAAGAGTAAAGTAAAAATATCTTAGAGCCTATCCCACCAGGCGTTAATTGGCGCAGCCAGTTTGGACACGGATAGCGCGCAAAAACCGCAGCGTACACGTAGTACGTGAGGTTTGACTCGCTACGCTCGCCCTTCGGGCCGCCGCTAGCGGCGTTCAAAACGCTAACGCGTTTTGGCGAGCACTGCCCAGGTTCAAAATGGCAAGTAAAATAGCCCTAATGGGATAGGCTCTTAGTTAGCACGTTAATTATCTATCGTGTATATGGAGGGGAGGTACCGGC (double strand) [PsseA]”, the binding result (positive control, argS promoter as competitor) is reported as “binds”.
Regarding “GCAGAGCTCTGGCCGTATGCAGCGCGCCGGGATTCGGAGAGCTTCCGGTACGTCTGATCTCGCCACAAGAGGTCGGGGTAGAGCATCGGGGAAAAGGGCGCAATCAGCGCCTGGTGCATAACATCCTTCCTGATAGCCAGCTCGCCGACAGCCTGCTAGTCGTTGAAGTGTACACTAATGAAGGCGATACCAGCTCCTGGCCCGCGCACAAGCACGATACGGCAGTTGAAGGCCAGGAGACCTATCTGGAAGAGACGTACTATCACCGTTTCAATCCACCTCAGGGATTCTGCTTACAGCGCGTCTACACCGACGATCGCAGCCTGGATGAATGTATGGCGGTCTATAACCGGGATGTAGTGAAAGTACCTAAGGGCTACCACCCGGTTGCCACCATCGCGGGTTACGATAACTACTATCTGAACGTGATGGCCGGCCCGCTACGAAAATGGCGTTTCACCTGGGAAGAGAACCACGCGTGGATTAACTCACCAGACTACCCGCGATAAGGTACCCCG (double strand) [PrssR (PSTnc2160)]”, the binding result (argS promoter as competitor in same lane, shift at about the same molar ratio as PsseA) is given as “binds”.

These data come from publication PMC6288124.
